Test system: EMC virus
Experiment: Effect on histopathological changes in heart muscle in a cardiac insufficiency model induced by EMC viral myocarditis in mice
Assay type: in vivo
Conditions: DBA/2 mice, 5 days
Protocol: A comparative study was conducted on the effect of cetirizine on histopathological changes in heart muscle in a cardiac insufficiency model induced by EMC viral myocarditis in mice.
28-day-old, male DBA/2 mice were divided into three groups, and EMC virus was inoculated intraperitoneally to all groups at 1 pfu/mouse (day 0) in the same manner as Test Example 1. […]
After five days, the hearts of the animals were removed, stained with hematoxylin-eosin stain after fixing with formalin, and scored for the two parameters of heart muscle cellular necrosis and inflammatory cellular invasion in the manner described below (documents such as Circulation 1999; 100; 1823-1829 can be referred to for further details regarding this formalin fixation, hematoxylin-eosin staining and scoring). The scores for heart muscle cellular necrosis and inflammatory cellular invasion were evaluated independently by two observers and then averaged. […]
Data consisting of heart weight, body weight, heart weight/body weight ratio, heart muscle cellular necrosis and inflammatory cellular invasion measured in accordance with that described above is summarized in Table 1 below. […]

## O=C(O)COCCN1CCN(C(c2ccccc2)c2ccc(Cl)cc2)CC1 (racemic) [Cetirizine, (±)-[2-[4-[(4-chlorophenyl)phenylmethyl]-1-piperazinyl]ethoxy]acetic acid]
1 mg/kg/day oral, n = 10, mean ± SD
  Body weight (g) (day 5): 13.0 ± 2.6 g
10 mg/kg/day oral, n = 7, mean ± SD
  Body weight (g) (day 5): 11.4 ± 2.1 g
